Pooled drug test results. Numbers come from NIAID ChemDB, via PubChem.

Shared fields: growth or infection tests

Rows are shuffled and stem from different studies. ECn: concentration that inhibits the pathogen or its effect by n%. Percent inhibition refers to the dose given; in toxicity tests it is the harm to the cells. A number after MIC or MFC names an inhibition level or a share of isolates. Blank or dashed fields: not listed here.

SMILES | cell line | dose | read by | strain | read-out | agent | value
O=C(O)c1cc(S(=O)(=O)[O-])ccc1O | Human amnion AV3 cells | 50 µg/mL | cytopathic effect | TYPE 3 | inhibition | Adenovirus | 25%
C/C=C\[C@@H]1C[C@H](C(=O)O)N[C@H]1[C@@H](NC(C)=O)[C@](C)(CCC)OC | MDCK | - | plaque count | Isolate C17C | EC50 | Influenza B virus | <0.01 µg/mL
Cc1cc(CCCOc2c(C)cc(-c3noc(C(F)(F)F)n3)cc2C)on1 | OHIO HELA-I | - | cytopathic effect / visual reading | Isolate 30 | EC50 | Rhinovirus | >10 µg/mL
O=c1[nH]c(=O)n([C@H]2C[C@H](O)[C@@H](CO)O2)cc1/C=C/Br | HELF | 0.01 µg/mL | plaque count | Kawaguchi | inhibition | Varicella zoster virus | 95%
O=C1C(c2[nH]c3ccc(S(=O)(=O)O)cc3c2O)=Nc2ccc(S(=O)(=O)O)cc21 | Human embryonic lung cells | 10 µg/mL | cytopathic effect | TYPE 3 | inhibition | Adenovirus | 0%
Nc1nc2c(ncn2COCCO)c(=O)[nH]1 | HELF | 0.1 µg/mL | plaque count | HIRAI | inhibition | Varicella zoster virus | 12%
CCOC(=O)c1c(C)nc(NCCCCNc2ccnc3cc(Cl)ccc23)nc1-c1ccc(F)cc1 | - | - | - | 135L/03 | MIC99 | Cryptococcus gattii | 8 µg/mL
CC(=O)N[C@H]1[C@H]([C@H](O)[C@H](O)CO)OC(C(=O)O)=C[C@@H]1N=C(N)N | MDCK | - | visual reading | Influenza A/Washington/05/96 (H3N2) | EC50 | Influenza A virus | 0.03 µM
Oc1ccccc1C=Nc1ccccc1O | - | - | - | 5396 | MIC99 | Cryptococcus neoformans | 5.7 µg/mL
Cc1cc(-c2ccc(N=Nc3ccc4c(S(=O)(=O)O)cc(S(=O)(=O)O)c(N)c4c3O)c(C)c2)ccc1N=Nc1ccc2c(S(=O)(=O)O)cc(S(=O)(=O)O)c(N)c2c1O | Human embryonic lung cells | 10 µg/mL | cytopathic effect | TYPE 3 | inhibition | Adenovirus | 0%
Oc1ccccc1N=Cc1ccccc1 | - | - | - | 29/10893 | MIC99 | Cryptococcus gattii | 8 µg/mL
C=CCc1ccc(O)c(OC)c1 | - | - | turbidity | 2643 | MIC90 | Candida albicans | 480 µg/mL
O=C(Nc1ccc2cc(S(=O)(=O)[O-])cc(S(=O)(=O)[O-])c2c1)c1ccccc1 | Human amnion AV3 cells | 10 µg/mL | cytopathic effect | TYPE 3 | inhibition | Adenovirus | 0%
O=c1[nH]c(=O)n([C@H]2C[C@H](O)[C@@H](CO)O2)cc1I | HELF | 10 µg/mL | plaque count | Ohtomo | inhibition | Varicella zoster virus | 100%
CCO/N=C/c1ccc(OCCC2CCN(c3ccc(Cl)nn3)CC2)cc1 | KB | - | neutral red | 1505 (ICAM-1 receptor group 48) | EC50 | Rhinovirus | 0.103 µM
O=S(=O)(O)c1ccc2cc(O)c(S(=O)(=O)O)cc2c1 | Human embryonic lung cells | 10 µg/mL | cytopathic effect | TYPE 3 | inhibition | Adenovirus | 43%
O=c1[nH]c(=O)n([C@@H]2O[C@H](CO)[C@@H](O)[C@@H]2O)cc1/C=C/Br | HELF | 0.01 µg/mL | plaque count | HIRAI | inhibition | Varicella zoster virus | 100%
O=S(=O)([O-])c1cc(NS(=O)(=O)c2ccccc2)c2c(S(=O)(=O)[O-])cc(S(=O)(=O)[O-])cc2c1 | Human conjunctiva cells | 5 µg/mL | cytopathic effect | - | inhibition | Herpes simplex virus | 36%
Nc1nc(=O)n([C@@H]2O[C@H](CO)[C@@H](O)[C@@H]2F)cc1I | HELF | 0.1 µg/mL | plaque count | HIRAI | inhibition | Varicella zoster virus | 100%
COc1cc(-c2ccc(N=Nc3ccc4c(S(=O)(=O)O)cc(S(=O)(=O)O)c(N)c4c3O)c(OC)c2)ccc1N=Nc1ccc2c(S(=O)(=O)O)cc(S(=O)(=O)O)c(N)c2c1O | Human embryonic lung cells | 50 µg/mL | cytopathic effect | - | inhibition | Rhinovirus | 20%
Oc1ccccc1N=Cc1ccc(F)cc1 | - | - | - | 29/10893 | MIC99 | Cryptococcus gattii | 8 µg/mL

2 of the rows above, restated:

SMILES	cell line	dose	read by	strain	read-out	agent	value
O=C(O)c1cc(S(=O)(=O)[O-])ccc1O	Human amnion AV3 cells	50 µg/mL	cytopathic effect	TYPE 3	inhibition	Adenovirus	25%
CCO/N=C/c1ccc(OCCC2CCN(c3ccc(Cl)nn3)CC2)cc1	KB	-	neutral red	1505 (ICAM-1 receptor group 48)	EC50	Rhinovirus	0.103 µM